Experimental data: PubChem BioAssay AID588689 (Southern Research Specialized Biocontainment Screening …, 2011)
The list shows a part of the results. Entries with a potency or affinity are not part of this list. Active and inactive are the calls of the source. Cut-off read from the data, not from the text of the source: inconclusive = inhibition above about 29% without an active follow-up result; inactive = below that.

The chains behind the UniProt entries cited, without tags or fusion partners.
UniProt P29991, whole entry, looked up: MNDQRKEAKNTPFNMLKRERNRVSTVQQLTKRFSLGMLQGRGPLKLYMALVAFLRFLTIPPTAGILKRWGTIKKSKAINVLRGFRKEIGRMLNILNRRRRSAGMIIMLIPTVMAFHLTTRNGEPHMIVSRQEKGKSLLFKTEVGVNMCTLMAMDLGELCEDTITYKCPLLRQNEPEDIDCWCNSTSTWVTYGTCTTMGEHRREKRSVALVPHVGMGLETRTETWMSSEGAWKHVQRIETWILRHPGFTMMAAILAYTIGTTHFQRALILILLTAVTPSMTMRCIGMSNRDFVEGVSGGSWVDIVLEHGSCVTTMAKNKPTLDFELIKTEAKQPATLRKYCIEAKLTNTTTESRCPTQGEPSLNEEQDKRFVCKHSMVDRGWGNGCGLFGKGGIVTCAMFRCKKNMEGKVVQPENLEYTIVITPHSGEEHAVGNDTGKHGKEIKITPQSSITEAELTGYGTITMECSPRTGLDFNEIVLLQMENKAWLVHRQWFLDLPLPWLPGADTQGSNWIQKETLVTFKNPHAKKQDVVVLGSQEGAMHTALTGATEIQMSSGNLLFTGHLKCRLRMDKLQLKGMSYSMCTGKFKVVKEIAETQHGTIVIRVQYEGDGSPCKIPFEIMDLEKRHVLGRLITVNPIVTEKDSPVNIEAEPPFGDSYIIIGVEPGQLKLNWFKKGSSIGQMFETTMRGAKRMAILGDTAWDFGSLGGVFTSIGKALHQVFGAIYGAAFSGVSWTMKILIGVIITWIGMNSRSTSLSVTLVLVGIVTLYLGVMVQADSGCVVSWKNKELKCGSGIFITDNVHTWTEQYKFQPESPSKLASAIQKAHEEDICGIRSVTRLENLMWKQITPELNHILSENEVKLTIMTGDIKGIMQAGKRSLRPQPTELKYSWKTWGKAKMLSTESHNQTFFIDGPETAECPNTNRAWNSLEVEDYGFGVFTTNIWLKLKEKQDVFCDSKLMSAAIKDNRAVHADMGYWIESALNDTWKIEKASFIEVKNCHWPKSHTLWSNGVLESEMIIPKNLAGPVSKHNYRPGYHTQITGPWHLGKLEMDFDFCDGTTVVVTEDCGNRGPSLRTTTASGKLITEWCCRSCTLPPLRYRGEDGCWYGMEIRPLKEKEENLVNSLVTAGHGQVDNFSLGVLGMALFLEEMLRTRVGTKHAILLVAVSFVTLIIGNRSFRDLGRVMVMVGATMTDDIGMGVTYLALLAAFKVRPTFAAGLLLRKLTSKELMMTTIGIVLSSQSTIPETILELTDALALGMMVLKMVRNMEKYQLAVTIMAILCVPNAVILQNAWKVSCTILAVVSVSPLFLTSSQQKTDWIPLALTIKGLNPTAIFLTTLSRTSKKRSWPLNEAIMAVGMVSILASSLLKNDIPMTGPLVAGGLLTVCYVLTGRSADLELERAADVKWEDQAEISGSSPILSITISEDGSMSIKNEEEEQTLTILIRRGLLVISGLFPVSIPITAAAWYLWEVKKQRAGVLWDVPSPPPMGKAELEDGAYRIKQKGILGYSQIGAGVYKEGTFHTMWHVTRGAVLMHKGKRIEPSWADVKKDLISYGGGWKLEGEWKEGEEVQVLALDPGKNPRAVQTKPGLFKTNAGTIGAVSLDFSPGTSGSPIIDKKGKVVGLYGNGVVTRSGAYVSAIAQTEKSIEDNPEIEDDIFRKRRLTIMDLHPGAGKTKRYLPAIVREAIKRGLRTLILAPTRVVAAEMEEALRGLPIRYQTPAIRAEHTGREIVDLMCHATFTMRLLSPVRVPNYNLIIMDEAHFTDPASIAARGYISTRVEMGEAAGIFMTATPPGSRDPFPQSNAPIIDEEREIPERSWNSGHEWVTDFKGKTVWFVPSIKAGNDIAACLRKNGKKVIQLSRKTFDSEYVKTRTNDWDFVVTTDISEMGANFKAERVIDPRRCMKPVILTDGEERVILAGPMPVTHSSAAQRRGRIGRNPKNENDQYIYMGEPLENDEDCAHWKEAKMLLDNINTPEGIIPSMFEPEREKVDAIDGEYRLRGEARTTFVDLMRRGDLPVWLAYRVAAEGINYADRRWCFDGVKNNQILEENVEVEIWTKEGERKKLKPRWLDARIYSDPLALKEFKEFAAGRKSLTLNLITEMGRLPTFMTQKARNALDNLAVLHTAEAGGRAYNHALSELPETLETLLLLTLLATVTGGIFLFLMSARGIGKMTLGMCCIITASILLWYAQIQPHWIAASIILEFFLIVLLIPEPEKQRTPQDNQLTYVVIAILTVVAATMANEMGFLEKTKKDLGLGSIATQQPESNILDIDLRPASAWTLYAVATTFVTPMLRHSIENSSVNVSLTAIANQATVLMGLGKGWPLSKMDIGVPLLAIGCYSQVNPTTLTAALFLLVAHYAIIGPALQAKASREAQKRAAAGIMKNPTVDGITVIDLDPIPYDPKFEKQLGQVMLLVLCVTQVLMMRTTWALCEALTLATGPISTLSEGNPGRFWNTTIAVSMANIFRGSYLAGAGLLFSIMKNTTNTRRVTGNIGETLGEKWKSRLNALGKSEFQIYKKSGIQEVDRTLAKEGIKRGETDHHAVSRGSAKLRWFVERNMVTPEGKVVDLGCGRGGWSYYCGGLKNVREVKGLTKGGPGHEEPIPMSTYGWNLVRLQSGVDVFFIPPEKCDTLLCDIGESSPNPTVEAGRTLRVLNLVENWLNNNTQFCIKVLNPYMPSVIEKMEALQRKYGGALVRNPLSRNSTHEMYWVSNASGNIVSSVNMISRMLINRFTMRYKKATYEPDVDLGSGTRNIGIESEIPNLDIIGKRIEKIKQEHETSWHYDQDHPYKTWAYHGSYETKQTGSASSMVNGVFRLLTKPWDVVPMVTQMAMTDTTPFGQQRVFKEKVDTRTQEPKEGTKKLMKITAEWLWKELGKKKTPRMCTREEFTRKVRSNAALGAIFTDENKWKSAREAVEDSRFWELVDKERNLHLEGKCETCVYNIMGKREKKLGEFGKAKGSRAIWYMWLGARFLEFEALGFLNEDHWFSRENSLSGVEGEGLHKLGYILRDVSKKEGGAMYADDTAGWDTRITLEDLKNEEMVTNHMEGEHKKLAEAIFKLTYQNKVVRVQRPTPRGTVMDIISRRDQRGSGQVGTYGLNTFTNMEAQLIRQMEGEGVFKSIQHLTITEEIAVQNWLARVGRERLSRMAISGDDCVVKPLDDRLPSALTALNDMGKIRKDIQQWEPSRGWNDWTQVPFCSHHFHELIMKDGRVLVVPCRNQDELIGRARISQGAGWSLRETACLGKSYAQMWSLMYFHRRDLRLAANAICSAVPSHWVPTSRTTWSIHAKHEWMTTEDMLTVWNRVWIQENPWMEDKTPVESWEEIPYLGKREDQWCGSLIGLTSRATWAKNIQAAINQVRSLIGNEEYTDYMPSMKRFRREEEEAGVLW

molecular target: Genome polyprotein (Dengue virus type 2 (strain 16681-PDK53)) (UniProt P29991); assay: Dengue-2 NS5 methyltransferase inhibitors, primary screen, biochemical, confirmation dose response (AID 588689); details: Dengue-2 NS5 methyltransferase capping enzyme assay, at 25 µM, active compounds read high

SMILES | inhibition
CCc1nc2c(n1)c1c(non1O)c1c2no[n+]1[O-] | inactive: 0.68%
CC(=O)N1C2C3N(C(C)=O)C1C1N(C(C)=O)C(C(N1C(C)=O)N3C(C)=O)N2C(C)=O | inactive: 3.75%
O=[N+]([O-])c1cccc2n[nH]nc12 | inactive: 7.16%
COc1ccc(C2=NCC(CBr)S2)cc1 (configuration not stated) | inactive: -5.31%
CC1CCN(C(=O)Oc2c(Cl)cc(Cl)c3cccnc23)CC1 | inactive: -6.17%
c1cc(-c2nn[nH]n2)ccc1-c1nn[nH]n1 | inactive: 4.57%
CC(C)c1nc(Nc2ccccc2)n(P(=O)(N(C)C)N(C)C)n1 | inactive: 1.15%
CC(C)=N/N=C(\N)N[N+](=O)[O-] | inactive: -5.89%
CN(C)C(=O)OCCc1n(C)cc[n+]1C | inactive: -7.71%
CCN(/C(=N/P(=O)(N1CCOCC1)N1CCOCC1)N1CCOCC1)c1ccc(OC)cc1 | inactive: -4.51%
Nc1ccc([As](=O)(O)c2ccc(N)cc2)cc1 | inactive: -15.7%
C[N+]1=C2C=CC=CC=C2SC12C([N+](=O)[O-])=CC([N+](=O)[O-])=C[C-]2[N+](=O)[O-] (configuration not stated) | inactive: 47.3%
CN1CCCC(OC(=O)C(c2ccccc2)c2ccccc2)C1 (configuration not stated) | inactive: -4%
Clc1ccc(Cl)c(NC2=NCC(CBr)S2)c1 (configuration not stated) | inactive: -1.64%
COc1ccccc1OP(=O)(Nc1ccc(C)cn1)Oc1ccccc1OC | inactive: 2.21%
CN(C(=O)Cc1ccc(Cl)c(Cl)c1)[C@H]1CCCC[C@H]1N1CCCC1 | inactive: -1.49%
Cc1ccc(N/C(=N/P(=O)(N2CCOCC2)N2CCOCC2)N2CCOCC2)cc1 | inactive: 7.02%
NC(=O)c1cc([N+](=O)[O-])cc([N+](=O)[O-])c1N | inactive: -10.1%
Oc1ccccc1CNc1ccccn1 | inactive: -0.69%
O=C(NC(Sc1ccncn1)C(Cl)(Cl)Cl)c1ccccc1 (configuration not stated) | inactive: -3.9%
Nc1cc(N)c2nonc2c1[N+](=O)[O-] | inactive: -4.59%
CC(C)CC(=O)NC(Sc1ccc(Cl)cc1)C(Cl)(Cl)Cl (configuration not stated) | inactive: 0%
Cc1cc(SC(NC(=O)c2ccc(F)cc2)C(Cl)(Cl)Cl)ncn1 (configuration not stated) | inactive: -11.8%
CCOP(=O)(Nc1ccccc1)OCC | inactive: 8.57%

SMILES | inhibition
CN(C(=O)Cc1ccc(Cl)c(Cl)c1)[C@H]1CCCC[C@@H]1N1CCCC1 | inactive: 1.47%
Cc1ccc(NP(=O)(Oc2ccccc2F)Oc2ccccc2F)nc1 | inactive: 2.32%
O=P(Nc1nc2ccc(Cl)cc2s1)(c1ccccc1)c1ccccc1 | inactive: 6.96%
CN(C)P(=O)(N(C)C)n1c(Nc2ccccc2)nnc1-c1ccccc1 | inactive: 3.45%
CC(=O)Nc1ccc([As](=O)(O)O)cc1 | inactive: 6.52%
O=C(O)c1ccccc1[As](=O)(O)O | inactive: 3.91%
CCCC1OP(N)(=O)OCC1CC (configuration not stated) | inactive: -8.53%
Nc1cccc2ccc([As](=O)(O)O)cc12 | inactive: 84.5%
CCN(N=Nc1nonc1N)c1nonc1N | inactive: 0%
O=P1(N(CCCl)CCCl)OCCC2CCCCN21 (configuration not stated) | inactive: 2.33%
O=C(NC1CCS(=O)(=O)C1)NP(=S)(Oc1ccccc1)Oc1ccccc1 (configuration not stated) | inactive: 0.74%
CCNC(=S)/N=C(\N)N[N+](=O)[O-] | inactive: 0%
CC(NC(=O)COC(=O)C(O)(c1ccccc1)c1ccccc1)c1ccccc1 (configuration not stated) | inactive: -2.21%
Cc1ccccc1OP(=O)(Nc1ccccn1)Oc1ccccc1C | inactive: 2.35%
O=c1c2cc([N+](=O)[O-])ccc2[nH]c2c([N+](=O)[O-])cc([N+](=O)[O-])cc12 | inactive: -4.69%
CN(C)C(=O)Oc1noc2ccccc12 | inactive: 3.06%
O=C(OC1CN2CCC1CC2)c1ccccc1 (configuration not stated) | inactive: -4.52%
CCC(=O)N1C2C3N(C(=O)CC)C1C1N(C(=O)CC)C(C(N1C(=O)CC)N3C(=O)CC)N2C(=O)CC | inactive: -7.62%
COC(=O)c1cc2c(s1)N=C(c1ccccc1)N(C)P2(=O)N1CCOCC1 (configuration not stated) | inactive: 1.07%
Cc1ccc(OP(=O)(Nc2ccccn2)Oc2ccc(C)cc2)cc1 | inactive: 2.87%
CC(=O)NC(SC(=S)N(CC(C)C)CC(C)C)C(Cl)(Cl)Cl (configuration not stated) | inactive: -8.67%
CC(C)(C)C(=O)NC(Sc1ccccc1)C(Cl)(Cl)Cl (configuration not stated) | inactive: -0.78%
CCc1cc(O)c([N+](=O)[O-])c(C)c1[N+](=O)[O-] | inactive: 3.5%
O=P1(Nc2nc3ccc(Cl)cc3s2)COc2ccccc2O1 (configuration not stated) | inactive: -2.42%

SMILES | inhibition
CCOc1ccc(C2=NCC(CBr)S2)cc1 (configuration not stated) | inactive: 4.58%
CC(=O)Nc1ccc([As](=O)(O)O)c(O)c1 | inactive: 0%
CC(=O)Nc1ccc(Oc2c([N+](=O)[O-])cc([N+](=O)[O-])cc2[N+](=O)[O-])cc1 | inactive: -2.33%
Cc1ccccc1CN(C)C(=O)COC(=O)C(O)(c1ccccc1)c1ccccc1 | inactive: -0.74%
C[C@H]1OP(=O)(Oc2ccccc2)C[C@@H]2O[C@@H]21 (some centres not stated) | inactive: -5.18%
C[C@@H]1C=CCP(=O)(Oc2ccccc2)O1 (some centres not stated) | inactive: 3.51%
CC(=O)c1ccc(N2CC2c2ccncc2)cc1 (configuration not stated) | inactive: 0%
N#C/C(=C\c1ccc(N(CCBr)CCBr)cc1)C(N)=O | inactive: -15.1%
COC(=O)C1(C)COP(=O)(NCc2ccccc2)OC1 (configuration not stated) | inactive: 4.03%
c1nnnn1CCn1cnnn1 | inactive: 0%
O=P(Nc1nccs1)(c1ccccc1)c1ccccc1 | inactive: -1.36%
CC(C)C(=O)NC(Sc1ccccc1)C(Cl)(Cl)Cl (configuration not stated) | inactive: 4.16%
O=P(Nc1nc2ccccc2s1)(c1ccccc1)c1ccccc1 | inactive: -4.02%
C[C@H]1OP(=O)(Oc2ccccc2)[C@H](O)[C@H](O)[C@H]1N=[N+]=[N-] (some centres not stated) | inactive: -8.63%
CN(C)C1(CNC(=O)c2ccc(Cl)c(S(N)(=O)=O)c2)CCCCC1 | inactive: 0%
O=P(Nc1ccccn1)(c1ccc(Br)cc1)c1ccc(Br)cc1 | inactive: -7.17%
COc1ccc(N)c([N+](=O)[O-])c1[N+](=O)[O-] | inactive: 7.96%
O=C(OC1CN2CCC1CC2)c1cccc(Cl)c1 (configuration not stated) | inactive: 7.77%
C(Cc1nn[nH]n1)Cc1nn[nH]n1 | inactive: -4.41%
Nc1ccc([As](=O)(O)c2ccc([N+](=O)[O-])cc2)cc1 | inactive: -5.41%
O=[As](O)(c1ccccc1)c1ccc(O)cc1 | inactive: 0%
O=[N+]([O-])c1ncn(CCn2cnc([N+](=O)[O-])n2)n1 | inactive: -6.77%
CC(=O)NC(SC(=S)N(C)C)C(Cl)(Cl)Cl (configuration not stated) | inactive: 0.72%
O=[N+]([O-])c1ccc(O)c(/C=N/Nc2ccc([N+](=O)[O-])cc2[N+](=O)[O-])c1 | inactive: 27.2%
